# Potato spindle tuber viroid, loop 15: variant abundance in plants

From the data files of Wu et al. 2024, doi:10.1371/journal.ppat.1012142.

PSTVd intermediate strain, loop 15: wild type GGAAACCGCUACUAC, pool pattern GGAAACCGNNNNNNC; upper and lower strand joined, each 5' to 3', the first 7 letters being the upper strand, closing pairs included.

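A pool of all variants was put on leaves of three Nicotiana benthamiana plants. Progeny were sequenced from the inoculated region (day 5), the margin of the inoculated leaf (day 10) and systemic leaves (day 12).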

Values are reads per thousand in the sample; higher means more abundant, 0 means not found. Each site shows the three plants. "Pool" is the share in the plasmid pool used as inoculum, on the same scale. The inoculated region was read from the minus strand, the other sites from the plus strand. Samples held 43,870 to 66,106 reads, so the smallest values rest on one or two reads. Sequences that differ at fixed positions probably stem from PCR or sequencing errors, and defective variants can be carried along by functional ones. Wild type was 33.9 per thousand in the pool and the most common sequence in every sample (inoculated region 202, 200, 159; leaf margin 724, 746, 710; systemic leaves 856, 883, 880).

| sequence | pool | inoculated region | leaf margin | systemic leaves |
|---|---|---|---|---|
| GGAAACCGUUCCCCC | 0.192 | 0.0328 0.0964 0.171 | 0 0 0 | 0.0322 0 0 |
| GGAAACCGGACUCUC | 0.160 | 0.0983 0.129 0.0952 | 0.0162 0 0.0200 | 0 0 0 |
| GGAAACCGAGACCGC | 0.336 | 0.0655 0.0482 0.0762 | 0 0 0.0200 | 0 0 0 |
| GGAAACCGGGCUAAC | 0.224 | 0.115 0.0803 0.133 | 0 0.0223 0.0200 | 0 0 0 |
| GGAAACCGCCGGUGC | 0.240 | 0.311 0.305 0.305 | 0.146 0.0445 0.140 | 0.0483 0.0605 0.114 |
| GGAAACCGCACUUAC | 0.224 | 0.311 0.289 0.381 | 0.0970 0.0445 0.180 | 0.0644 0 0 |
| GGAAACCGAACGCCC | 0.176 | 0.147 0.0321 0.0571 | 0 0 0 | 0 0 0 |
| GGAAACCGAAGGUGC | 0.176 | 0.0819 0.0803 0.0762 | 0 0 0.0200 | 0 0 0 |
| GGAAACCGCAGCCCC | 0.336 | 0.0491 0.0643 0.114 | 0 0 0.0200 | 0 0 0 |
| GGAAACCGAACGUUC | 0.192 | 0.377 0.402 0.267 | 0.113 0.0445 0.100 | 0.0322 0.0756 0.0684 |
| GGAAACCGCGACUAC | 1.49 | 1.10 0.578 1.07 | 1.18 1.05 1.28 | 1.03 1.04 0.137 |
| GGAAACCGACCCAUC | 0.240 | 0.0328 0.0803 0.0190 | 0 0 0.0200 | 0 0 0 |
| GGAAACCGGCAGCAC | 0.272 | 0.0983 0.0964 0.114 | 0 0 0 | 0 0 0 |
| GGAAACCGGUGGCUC | 0.224 | 0.0983 0.0964 0.0571 | 0 0 0 | 0.0161 0 0 |
| GGAAACCGGAACUUC | 0.224 | 0.295 0.369 0.438 | 0.0808 0.0445 0.0601 | 0.0161 0 0 |
| GGAAACCGGUUGGAC | 0.208 | 0.115 0.0643 0.0571 | 0 0 0.0401 | 0 0 0 |
| GGAAACCGGUGCGUC | 0.224 | 0.147 0.0964 0.133 | 0 0 0.0401 | 0 0 0 |
| GGAAACCGCACCAAC | 0.224 | 0.0655 0.0321 0.0952 | 0.0162 0 0.0601 | 0.0161 0 0 |
| GGAAACCGAAUAACC | 0.240 | 0.115 0.161 0.0952 | 0 0 0 | 0.0322 0 0.0228 |
| GGAAACCGGAAUCAC | 0.208 | 0.131 0.0964 0.0571 | 0 0 0 | 0.0161 0 0 |
| GGAAACCGUGGGGAC | 0.208 | 0.147 0.145 0.209 | 0 0.0223 0.0200 | 0 0 0 |
| GGAAACCGUUGUAAC | 0.160 | 0.360 0.161 0.457 | 0.0808 0.0668 0.180 | 0.0161 0 0 |
| GGAAACCGUGCACCC | 0.192 | 0.131 0.0964 0.133 | 0.0162 0.0445 0 | 0 0 0 |
| GGAAACCGAACAUAC | 0.304 | 0.278 0.225 0.343 | 0.0808 0.134 0.200 | 0.0644 0 0 |
| GGAAACCGUCGUGCC | 0.304 | 0.0819 0.0964 0.209 | 0 0 0 | 0 0 0 |
| GGAAACCGUGCGUUC | 0.144 | 0.328 0.418 0.305 | 0.0323 0.0668 0.0801 | 0.0161 0.0756 0.0912 |
| GGAAACCGUGUGGGC | 0.208 | 0.115 0.0803 0.0381 | 0 0 0.0200 | 0 0 0 |
| GGAAACCGGCUUUUC | 0.176 | 0.0328 0.161 0.171 | 0.0323 0 0.0200 | 0 0 0 |
| GGAAACCGCACUAGC | 0.320 | 0.0164 0.0643 0.0762 | 0.0162 0 0.0401 | 0 0 0 |
| GGAAACCGCCUCUGC | 0.240 | 0.180 0.225 0.228 | 0 0 0.0200 | 0 0 0 |
| GGAAACCGCACGUCC | 0.112 | 0.0983 0.0161 0.0571 | 0 0.0223 0.0200 | 0 0 0 |
| GGAAACCGCUACUAG | 0.0320 | 0.262 0.337 0.171 | 0.113 0.111 0.100 | 0.0161 0.121 0.114 |
| GGAAACCGAAAGUAC | 0.240 | 0.360 0.177 0.419 | 0.0970 0.0445 0.0601 | 0.113 0 0 |
| GGAAACCGCUUGCCC | 0.272 | 0.0819 0.0482 0.0762 | 0 0 0 | 0.0161 0 0 |
| GGAAACCGGUCCGUC | 0.208 | 0.131 0.0482 0.133 | 0.0162 0.0223 0 | 0 0 0 |
| GGAAACCGGGAACUC | 0.272 | 0.0328 0.112 0.0762 | 0 0 0.0200 | 0 0 0 |
| GGAAACCGGAUAAAC | 0.208 | 0.0655 0.0964 0.0952 | 0 0 0 | 0 0 0 |
| GGAAACCGGGUGGCC | 0.160 | 0.115 0.112 0.133 | 0 0 0 | 0 0 0 |
| GGAAACCGGUUCGCC | 0.240 | 0.164 0.145 0.0571 | 0 0.0223 0.0200 | 0.0161 0 0 |
| GGAAACCGCACUCAC | 0.160 | 0.0983 0.112 0.0571 | 0 0 0 | 0 0 0 |